Anti-infective test results gathered from many reports (values: NIAID ChemDB through PubChem).

All rows: tests in culture; agent: Herpes simplex virus 1; method: cytopathic effect; endpoint: EC50

Lines come from different laboratories, so protocols vary. ECn: concentration that inhibits the pathogen or its effect by n%. An empty or dashed field is not shown.

smiles,cells,strain or isolate,result
C[C@H]1c2cccc(O)c2C(O)=C2C(=O)[C@]3(O)C(O)=C(C(N)=O)C(=O)[C@@H](N(C)C)[C@@H]3[C@@H](O)[C@@H]21,HeLa,KOS,>100 µM
Nc1ncnc2c1ncn2C[C@@H](CO)OCP(=O)(O)O,HEL,KOS,0.07 µg/mL
Nc1nc(=O)n([C@@H]2O[C@H](CO)[C@@H](O)[C@@H]2F)cc1I,HEL,KOS PFA-resistant,0.04 µg/mL
COc1cc(O)c2c(c1)C(=O)c1cc3c(c(O)c1C2=O)C(O[C@@H]1O[C@@H](C)[C@H](OC)[C@@H](O)[C@H]1OC)C(OC)C(C)(O)C3=O,HeLa,KOS,>200 µg/mL
Nc1nc2c(ncn2CCC(CO)CO)c(=O)[nH]1,HEL,PCV-resistant/B,>20 µg/mL
CCC[C@@H]1C[C@@H](C(=O)N[C@@H]([C@H]2O[C@H](SC)[C@H](O)[C@@H](O)[C@H]2O)[C@H](C)Cl)N(C)C1,HeLa,KOS,>100 µg/mL
Cc1cn([C@@H]2O[C@H](CO)[C@@H](O)[C@@H]2O)c(=O)[nH]c1=O,HEL,KOS BVDU-resistant,35 µg/mL
Nc1ncnc2c1ncn2C[C@@H](CO)OCP(=O)(O)O,HEL,KOS,1.73 µg/mL
CCOC(=O)P(=O)(OCCOCn1cnc2c(=O)[nH]c(N)nc21)OC(C)C,VERO,L2,0.37 µM
O=C(O)P(=O)(O)O,HEL,KOS,29.6 µg/mL
Nc1ccn(C[C@@H](CO)OCP(=O)(O)O)c(=O)n1,HEL,ACV-resistant,0.3 µg/mL
C[C@@H]1C/C=C2\SC[C@@H](NC(=O)c3coc(n3)C[C@H](O)C[C@H](O)/C=C\C=C/CNC2=O)C(=O)O1,HeLa,KOS,>200 µg/mL
Nc1ccn(C[C@@H](CO)OCP(=O)(O)O)c(=O)n1,HEL,KOS PMEDAP-resistant,0.34 µg/mL
Nc1nc(N)c2ncn(CCOCP(=O)(O)O)c2n1,HEL,PCV-resistant/B,3.3 µg/mL
Nc1ncnc2c1ncn2[C@@H]1O[C@H](CO)[C@@H](O)[C@@H]1O,HEL,KOS ACV-resistant,12.3 µg/mL
NC(=O)c1[nH]nc([C@@H]2O[C@H](CO)[C@@H](O)[C@H]2O)c1O,HeLa,KOS,>200 µg/mL
Nc1nc2c(ncn2COC(CO)CO)c(=O)[nH]1,HEL,KOS GCV-resistant,0.63 µg/mL
Nc1ccn(C[C@@H](CO)OCP(=O)(O)O)c(=O)n1,-,C137-101 (TK-),0.4 µg/mL

A second listing of 2 rows from above:

smiles	cells	strain or isolate	result
Nc1nc(=O)n([C@@H]2O[C@H](CO)[C@@H](O)[C@@H]2F)cc1I	HEL	KOS PFA-resistant	0.04 µg/mL
Nc1ccn(C[C@@H](CO)OCP(=O)(O)O)c(=O)n1	-	C137-101 (TK-)	0.4 µg/mL